Values joined by “and” are separate entries in the source; they are usually repeats but may differ in a detail not shown here. Equal values may be shown once.
Tested on: activated sludge
Assay: Biodegradability test (OECD Test Guidelines 301C, JIS K6950)
Settings: for biodegradation ratio for 28 days (average) / biodegradation ratio for 28 days (individual runs, n=2): 25° C.; for degradability decision (60% or more = good degradable): 28 days
[1] = high-concentration group (100 ppm)
[2] = low-concentration group (30 ppm)

Structure (SMILES): O=CCCCC=O [Glutaraldehyde, glutaraldehyde]
- biodegradation ratio for 28 days (average) [1]: 52.6%
- biodegradation ratio for 28 days (individual runs, n=2) [1]: 52.7% and 52.5%
- degradability decision (60% or more = good degradable) [1]: partial degradability (hardly degradable)
- biodegradation ratio for 28 days (average) [2]: 78.0%
- biodegradation ratio for 28 days (individual runs, n=2) [2]: 78.5% and 77.5%
- degradability decision (60% or more = good degradable) [2]: good degradability
